Test [1] concerns HCV replicon RNA in replicon cells (Huh-7). The test can be described thus: HCV Replicon Assay (reduction of HCV RNA, QuantiGene). Type of test: cell-based, Hepatitis C virus. As to conditions: Huh-7 replicon cells, 3 days at 37° C.; for EC50: read-out: HCV Replicon (EC50), first part of Table 1 (scaffold drawing 18). Here is the method:
The anti-HCV activity of the quinoxaline derivatives was tested by replicon and BVDV cell-line based assays. The HCV NS5B polymerase activity was tested as described below, and was further tested for its capability of inhibition of replication of the hepatitis C virus in a cell-line based HCV replicon assay as described in V. Lohmann, F. Komer, J.-O. Koch, U. Herian, L. Theilmann, R. Bartenschlager, “Replication of a Subgenomic Hepatitis C virus RNAs in a Hepatoma Cell Line”, Science, 1999, 285:110.
HCV Replicon Assay. The replicon cells (Huh-7) contain replicating HCV replicon RNA, which was modified in the structural region (replacing the structural region with a neomycin resistance marker). Survival of the replicon cells under G418 selection relies on the replication of HCV RNA and subsequently expression of neomycin phosphoryltransferase. The ability of modified nucleoside libraries and compounds to suppress HCV RNA replication was determined using the QuantiGene™ Assay Kit (Bayer Diagnostics, Tarrytown N.Y.). The assay measures the reduction of HCV RNA molecules in the treated cells. Replicon cells were incubated at 37° C. for 3 days in the presence of nucleoside libraries and compounds before being harvested for detection. The assay protocol was modified based on literature procedure (V. Lohmann, F. Komer, J. O. Koch, U. Herian, L. Theilmann, R. Bartenschlager, Science, 1999, 285, 110–113). The HCV subgenomic replicon cell line was provided by Dr. R. Bartenschlager.

By UniProt entry, the sequences of proteins in these tests, tags left out. Residues count along the entry.
UniProt Q9WMX2, 2420-3010 limits assumed: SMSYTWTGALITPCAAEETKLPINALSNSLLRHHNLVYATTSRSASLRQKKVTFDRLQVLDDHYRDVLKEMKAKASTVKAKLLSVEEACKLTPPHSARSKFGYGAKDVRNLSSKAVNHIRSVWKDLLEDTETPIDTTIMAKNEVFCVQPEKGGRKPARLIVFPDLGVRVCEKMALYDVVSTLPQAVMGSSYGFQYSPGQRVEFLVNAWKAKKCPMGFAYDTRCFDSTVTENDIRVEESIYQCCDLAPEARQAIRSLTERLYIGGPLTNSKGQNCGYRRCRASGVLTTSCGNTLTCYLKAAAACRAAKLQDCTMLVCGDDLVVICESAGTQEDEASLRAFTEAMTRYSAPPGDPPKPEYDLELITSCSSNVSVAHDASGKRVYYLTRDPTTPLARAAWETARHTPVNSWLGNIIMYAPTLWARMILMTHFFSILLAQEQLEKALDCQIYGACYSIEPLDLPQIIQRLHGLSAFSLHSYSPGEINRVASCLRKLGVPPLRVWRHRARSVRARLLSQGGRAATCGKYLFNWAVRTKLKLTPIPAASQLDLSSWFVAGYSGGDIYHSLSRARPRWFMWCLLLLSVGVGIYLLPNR

The target in the next test is HCV NS5B polymerase (Hepatitis C virus genotype 1b, UniProt Q9WMX2). Briefly: De novo RNA synthesis activity assay for HCV NS5B polymerase. As to conditions: NS5B 250 nM, 23C, 1 hr; for IC50: read-out: HCV NS5B (IC50), first part of Table 1 (scaffold drawing 18). Format: biochemical, HCV-1b CON1 strain. An excerpt:
HCV NS5B was derived from a cDNA clone encoding HCV-1b CON1 strain, and was expressed and purified from E. coli. Various [α-^33P]rNTPs (3000 Ci/mmol) were purchased from Perkin Elmer. 3′-Deoxy ribonucleosides, their 5′-triphosphates and dinucleotide primers were from Sigma, TriLink (San Diego, Calif.) or ICN Biochemicals. All other reagents were of the highest grade available from ICN, Sigma, Fisher, or Ambion.
An HCV mini-genome of 2.1-kb contains an entire 5′-UTR (untranslated region), part of NS5B sequence and an entire 3′-UTR was constructed from an internal deletion between two KpnI sites on the HCV replicon plasmid, pFK389/NS3-3′. To generate the in vitro transcribed mini-genome RNA, the plasmid DNA was linearized with AseI and ScaI and transcribed in vitro using a MegaScript kit (Ambion, Austin, Tex.). After phenol-chloroform extraction and isopropanol precipitation, the RNA was resuspended in RNase-free water and stored at −80° C. before use. This HCV strain CON1-based template was used for the standard NS5B-catalyzed RNA synthesis assay.
A standard NS5B activity assay was performed at 23C in a total volume of 25 μl. The reaction buffer contained 50 mM Tris, pH 7.0, 10 mM MgCl2, 50 mM NaCl, 5 mM DTT (add fresh) and 0.05 mg/ml BSA. 0.4 μg of the RNA template was incubated with NS5B enzyme (250 nM) before adding a mixture of radiolabeled nucleotide (0.2 μCi) and cold nucleotide cocktail to initiate a reaction. The assay was incubated for 1 hr and terminated by addition of 75 μl of 5% trichloroacetic acid (TCA) and 0.05% pyrophosphate solution. The quenched solution was incubated at room temperature for 10 min to precipitate out polymeric products and subsequently transferred to a 96-well white GF/B filter microplate (Packard Instrument) using a Packard Filtermate Universal Harvester. The filter plate was washed five times by water and one time by ethanol before vacuum drying. 40 μl of liquid scintillation cocktail (Packard MicroSint™) was added to each well. Radioactivity incorporated into the product was counted in a 96-well format using a Packard TopCount. IC50 values, defined as the inhibitor concentration to suppress 50% of NS5B activity, were determined by varying the compound concentration. The results in Table 1 are data obtained using the HCV NS5B assays described above.

Our source for the EC50 and IC50 values is patent US7189724B2, “Quinoxaline derivatives having antiviral activity” (Valeant Research and Development, priority 2003, dated 2007).

A word on the EC50: it is the concentration giving half of the maximal effect. As usually defined, the IC50 is the concentration that inhibits the measured activity by half. For `O=C(N[C@@H](Cc1c[nH]c2ccccc12)C(=O)O)c1ccc2nc(-c3ccc(F)cc3)c(-c3ccc(F)cc3)nc2c1`, the 50% effective concentration (EC50) in test [1] is greater than 50 µM. For the same molecule, on HCV NS5B polymerase, the IC50 is less than 10 µM.

Turning to `O=C(O)c1ccc2nc(-c3ccc(F)cc3)c(-c3ccc(F)cc3)nc2c1`, the half-inhibitory concentration (IC50) in test [1] (read-out: HCV Replicon (IC50), second part of Table 1 (scaffold drawing 19)) is greater than 50 µM. The EC50 on HCV NS5B polymerase (read-out: HCV NS5B (EC50), second part of Table 1 (scaffold drawing 19)) is less than 10 µM.

`NC(=O)[C@H](Cc1c[nH]c2ccccc12)NC(=O)c1ccc2nc(-c3ccc(F)cc3)c(-c3ccc(F)cc3)nc2c1`: the EC50 in test [1] lay within 10 to 50 µM. Further, the IC50 at HCV NS5B polymerase was less than 10 µM.

For `COC(=O)[C@H](Cc1c[nH]c2ccccc12)NC(=O)c1ccc2nc(-c3ccc(F)cc3)c(-c3ccc(F)cc3)nc2c1`, the half-maximal effective concentration (EC50) in test [1] lay within 10 to 50 µM. Besides, at HCV NS5B polymerase, the IC50 was greater than 50 µM.
